Results taken from article PMC6669600 (Viruses, 2019).

What was measured:
[1] = test system: HIV-1HXB2 Env-mediated cell-cell fusion; type: cell-based; conditions: TZM-bl target, HL2/3 effector, 6 h coculture at 37 C, luciferase, triplicate, repeated three times, mean ± SD, read-out: IC50, inhibition of HIV-1HXB2 Env-mediated cell-cell fusion
[2] = target: T1, N36 (gp41 NHR-derived target mimic peptide) (Human immunodeficiency virus type 1 group M subtype B, UniProt P04578); assay: CD spectroscopy of inhibitor complexed with N36; type: binding, HIV-1; conditions: thermal denaturation of complex at 222 nm, 20-98 C, 2 C/min, each peptide 10 μM in PBS; repeated two times, representative data
[3] = target: T1, N36 (gp41 NHR-derived target mimic peptide); assay: Isothermal titration calorimetry with N36; type: binding, HIV-1; conditions: ITC, 1 mM N36 injected into 80 μM CHR peptide, 25 C; for N (reaction stoichiometric): repeated two times, representative data

SMILES	IC50 [1]	CD data (with N36) Tm (°C) [2]	△H (enthalpy) [3]	△S (entropy) [3]	N (reaction stoichiometric) [3]	IC50 ([1]; SD)
CC[C@H](C)[C@H](NC(=O)[C@H](CC(C)C)NC(=O)[C@H](CCC(=O)O)NC(=O)[C@H](CCC(=O)O)NC(=O)[C@@H](NC(=O)[C@H](CCCCN)NC(=O)[C@H](CCCCN)NC(=O)[C@@H](NC(=O)[C@H](Cc1ccc(O)cc1)NC(=O)[C@H](CCC(=O)O)NC(=O)[C@H](CCC(=O)O)NC(=O)[C@@H](NC(=O)[C@H](CCCCN)NC(=O)[C@H](CCCCN)NC(=O)[C@H](CC(=O)O)NC(=O)[C@H](Cc1c[nH]c2ccccc12)NC(=O)[C@H](CCC(=O)O)NC(=O)[C@H](CCC(=O)O)NC(=O)[C@H](Cc1c[nH]c2ccccc12)NC(C)=O)[C@@H](C)CC)[C@@H](C)O)[C@@H](C)CC)C(=O)N[C@@H](CCCCN)C(=O)N[C@@H](CCCCN)C(=O)N[C@@H](CO)C(=O)N[C@@H](CCC(=O)O)C(=O)N[C@@H](CCC(=O)O)C(=O)N[C@@H](CCC(N)=O)C(=O)N[C@@H](CCC(N)=O)C(=O)N[C@@H](CCCCN)C(=O)N[C@@H](CCCCN)C(N)=O [SC28EK]	13 nM	57.6 °C	-9.0 kcal/mol	−3.66 cal/mol/deg	1.3	–
CC[C@H](C)[C@H](NC(=O)[C@H](CC(C)C)NC(=O)[C@H](CCC(=O)O)NC(=O)[C@H](CCC(=O)O)NC(=O)[C@@H](NC(=O)[C@H](CCCCN)NC(=O)[C@H](CCCCN)NC(=O)[C@@H](NC(=O)[C@H](Cc1ccc(O)cc1)NC(=O)[C@H](CCC(=O)O)NC(=O)[C@H](CCC(=O)O)NC(=O)[C@@H](NC(=O)[C@H](CCCCN)NC(=O)[C@H](CCCCN)NC(=O)[C@H](CC(=O)O)NC(=O)[C@H](Cc1c[nH]c2ccccc12)NC(=O)[C@H](CCC(=O)O)NC(=O)[C@H](CCC(=O)O)NC(=O)[C@H](Cc1c[nH]c2ccccc12)NC(C)=O)[C@@H](C)CC)[C@@H](C)O)[C@@H](C)CC)C(=O)N[C@@H](CCCCN)C(=O)N[C@@H](CCCCN)C(=O)N[C@@H](CO)C(=O)N[C@@H](CCC(=O)O)C(=O)N[C@@H](CCC(=O)O)C(=O)N[C@@H](CCC(N)=O)C(=O)N[C@@H](CCC(N)=O)C(=O)N[C@@H](CCCCN)C(=O)N[C@@H](CCCCN)C(=O)N[C@@H](CC(N)=O)C(N)=O [SC29EK, reference compound]	1 nM	63.3 °C	-15.8 kcal/mol	−23.6 cal/mol/deg	1.1	–
CC[C@H](C)[C@H](NC(=O)[C@H](CC(C)C)NC(=O)[C@H](CCC(=O)O)NC(=O)[C@H](CCC(=O)O)NC(=O)[C@@H](NC(=O)[C@H](CCCCN)NC(=O)[C@H](CCCCN)NC(=O)[C@@H](NC(=O)[C@H](Cc1ccc(O)cc1)NC(=O)[C@H](CCC(=O)O)NC(=O)[C@H](CCC(=O)O)NC(=O)[C@@H](NC(=O)[C@H](CCCCN)NC(=O)[C@H](CCCCN)NC(=O)[C@H](CC(=O)O)NC(=O)[C@H](Cc1c[nH]c2ccccc12)NC(=O)[C@H](CCC(=O)O)NC(=O)[C@H](CCC(=O)O)NC(=O)[C@H](Cc1c[nH]c2ccccc12)NC(C)=O)[C@@H](C)CC)[C@@H](C)O)[C@@H](C)CC)C(=O)N[C@@H](CCCCN)C(=O)N[C@@H](CCCCN)C(=O)N[C@@H](CO)C(=O)N[C@@H](CCC(=O)O)C(=O)N[C@@H](CCC(=O)O)C(=O)N[C@@H](CCC(N)=O)C(=O)N[C@@H](CCC(N)=O)C(=O)N[C@@H](CCCCN)C(=O)N[C@@H](CCCCN)C(=O)N[C@@H](CC(N)=O)C(=O)N[C@@H](CCC(=O)O)C(=O)N[C@@H](CCCCN)C(N)=O [SC31EK]	–	68.6 °C	–	–	–	0.9 ± 0.3 nM
CC[C@H](C)[C@H](NC(=O)[C@H](CC(C)C)NC(=O)[C@H](CCC(=O)O)NC(=O)[C@H](CCC(=O)O)NC(=O)[C@@H](NC(=O)[C@H](CCCCN)NC(=O)[C@H](CCCCN)NC(=O)[C@@H](NC(=O)[C@H](Cc1ccc(O)cc1)NC(=O)[C@H](CCC(=O)O)NC(=O)[C@H](CCC(=O)O)NC(=O)[C@@H](NC(=O)[C@H](CCCCN)NC(=O)[C@H](CCCCN)NC(=O)[C@H](CC(=O)O)NC(=O)[C@H](Cc1c[nH]c2ccccc12)NC(=O)[C@H](CCC(=O)O)NC(=O)[C@H](CCC(=O)O)NC(=O)[C@H](Cc1c[nH]c2ccccc12)NC(C)=O)[C@@H](C)CC)[C@@H](C)O)[C@@H](C)CC)C(=O)N[C@@H](CCCCN)C(=O)N[C@@H](CCCCN)C(=O)N[C@@H](CO)C(=O)N[C@@H](CCC(=O)O)C(=O)N[C@@H](CCC(=O)O)C(=O)N[C@@H](CCC(N)=O)C(=O)N[C@@H](CCC(N)=O)C(=O)N[C@@H](CCCCN)C(=O)N[C@@H](CCCCN)C(=O)N[C@@H](CC(N)=O)C(=O)N[C@@H](CCC(=O)O)C(=O)N[C@@H](CCCCN)C(=O)N[C@@H](CCC(=O)O)C(N)=O [SC32EK]	–	69.7 °C	–	–	–	0.8 ± 0.2 nM
CC[C@H](C)[C@H](NC(=O)[C@H](CC(C)C)NC(=O)[C@H](CCC(=O)O)NC(=O)[C@H](CCC(=O)O)NC(=O)[C@@H](NC(=O)[C@H](CCCCN)NC(=O)[C@H](CCCCN)NC(=O)[C@@H](NC(=O)[C@H](Cc1ccc(O)cc1)NC(=O)[C@H](CCC(=O)O)NC(=O)[C@H](CCC(=O)O)NC(=O)[C@@H](NC(=O)[C@H](CCCCN)NC(=O)[C@H](CCCCN)NC(=O)[C@H](CC(=O)O)NC(=O)[C@H](Cc1c[nH]c2ccccc12)NC(=O)[C@H](CCC(=O)O)NC(=O)[C@H](CCC(=O)O)NC(=O)[C@H](Cc1c[nH]c2ccccc12)NC(C)=O)[C@@H](C)CC)[C@@H](C)O)[C@@H](C)CC)C(=O)N[C@@H](CCCCN)C(=O)N[C@@H](CCCCN)C(=O)N[C@@H](CO)C(=O)N[C@@H](CCC(=O)O)C(=O)N[C@@H](CCC(=O)O)C(=O)N[C@@H](CCC(N)=O)C(=O)N[C@@H](CCC(N)=O)C(=O)N[C@@H](CCCCN)C(=O)N[C@@H](CCCCN)C(=O)N[C@@H](CC(N)=O)C(=O)N[C@@H](CCC(=O)O)C(=O)N[C@@H](CCCCN)C(=O)N[C@@H](CCC(=O)O)C(=O)N[C@@H](CC(C)C)C(N)=O [SC33EK]	–	75.4 °C	–	–	–	0.7 ± 0.4 nM
CC[C@H](C)[C@H](NC(=O)[C@H](CC(C)C)NC(=O)[C@H](CCC(=O)O)NC(=O)[C@H](CCC(=O)O)NC(=O)[C@@H](NC(=O)[C@H](CCCCN)NC(=O)[C@H](CCCCN)NC(=O)[C@@H](NC(=O)[C@H](Cc1ccc(O)cc1)NC(=O)[C@H](CCC(=O)O)NC(=O)[C@H](CCC(=O)O)NC(=O)[C@@H](NC(=O)[C@H](CCCCN)NC(=O)[C@H](CCCCN)NC(=O)[C@H](CC(=O)O)NC(=O)[C@H](Cc1c[nH]c2ccccc12)NC(=O)[C@H](CCC(=O)O)NC(=O)[C@H](CCC(=O)O)NC(=O)[C@H](Cc1c[nH]c2ccccc12)NC(C)=O)[C@@H](C)CC)[C@@H](C)O)[C@@H](C)CC)C(=O)N[C@@H](CCCCN)C(=O)N[C@@H](CCCCN)C(=O)N[C@@H](CO)C(=O)N[C@@H](CCC(=O)O)C(=O)N[C@@H](CCC(=O)O)C(=O)N[C@@H](CCC(N)=O)C(=O)N[C@@H](CCC(N)=O)C(=O)N[C@@H](CCCCN)C(=O)N[C@@H](CCCCN)C(=O)N[C@@H](CC(N)=O)C(=O)N[C@@H](CCC(=O)O)C(=O)N[C@@H](CCCCN)C(=O)N[C@@H](CCC(=O)O)C(=O)N[C@@H](CC(C)C)C(=O)N[C@@H](CCCCN)C(N)=O [SC34EK, reference compound]	–	74.3 °C	–	–	–	0.7 ± 0.2 nM
CC[C@H](C)[C@H](NC(=O)[C@H](CC(C)C)NC(=O)[C@H](CCC(=O)O)NC(=O)[C@H](CCC(=O)O)NC(=O)[C@@H](NC(=O)[C@H](CCCCN)NC(=O)[C@H](CCCCN)NC(=O)[C@@H](NC(=O)[C@H](Cc1ccc(O)cc1)NC(=O)[C@H](CCC(=O)O)NC(=O)[C@H](CCC(=O)O)NC(=O)[C@@H](NC(=O)[C@H](CCCCN)NC(=O)[C@H](CCCNC(=N)N)NC(=O)[C@H](CC(=O)O)NC(=O)[C@H](Cc1c[nH]c2ccccc12)NC(=O)[C@H](CCC(=O)O)NC(=O)[C@H](CCC(=O)O)NC(=O)[C@H](Cc1c[nH]c2ccccc12)NC(C)=O)[C@@H](C)CC)[C@@H](C)O)[C@@H](C)CC)C(=O)N[C@@H](CCCCN)C(=O)N[C@@H](CCCCN)C(=O)N[C@@H](CO)C(=O)N[C@@H](CCC(N)=O)C(=O)N[C@@H](CC(N)=O)C(=O)N[C@@H](CCC(N)=O)C(=O)N[C@@H](CCC(N)=O)C(=O)N[C@@H](CCC(=O)O)C(=O)N[C@@H](CCCCN)C(=O)N[C@@H](CC(N)=O)C(N)=O [WQ-EKN]	–	64.3 °C	–	–	–	1.2 ± 0.1 nM
CC[C@H](C)[C@H](NC(=O)[C@H](CCC(N)=O)NC(=O)[C@H](CCC(N)=O)NC(=O)[C@H](CC(N)=O)NC(=O)[C@H](CCC(N)=O)NC(=O)[C@H](CO)NC(=O)[C@H](CCCCN)NC(=O)[C@H](CCCCN)NC(=O)[C@@H](NC(=O)[C@H](CC(C)C)NC(=O)[C@H](CCC(=O)O)NC(=O)[C@H](CCC(=O)O)NC(=O)[C@@H](NC(=O)[C@H](CCCCN)NC(=O)[C@H](CCCCN)NC(=O)[C@@H](NC(=O)[C@H](Cc1ccc(O)cc1)NC(=O)[C@H](CCC(=O)O)NC(=O)[C@H](CCC(=O)O)NC(=O)[C@@H](NC(=O)[C@H](CCCCN)NC(=O)[C@H](CCCNC(=N)N)NC(=O)[C@H](CC(=O)O)NC(=O)[C@H](Cc1c[nH]c2ccccc12)NC(=O)[C@H](CCC(=O)O)NC(=O)[C@H](CCC(=O)O)NC(=O)[C@H](Cc1c[nH]c2ccccc12)NC(C)=O)[C@@H](C)CC)[C@@H](C)O)[C@@H](C)CC)[C@@H](C)CC)C(=O)N[C@@H](CC(=O)O)C(=O)N[C@@H](CC(C)C)C(N)=O [WQ-IDL, reference compound]	–	63.8 °C	–	–	–	1.1 ± 0.1 nM

Read-outs that look alike come from different tables or passages of the source.
